# Data as given in article PMC3518039 (Journal of medicinal chemistry, 2012).
# Sequences of proteins named here, by UniProt entry; tags and fusion partners are left off. A change or cut given only in a name is not applied to a line headed by its entry.
# UniProt I6Y2J4: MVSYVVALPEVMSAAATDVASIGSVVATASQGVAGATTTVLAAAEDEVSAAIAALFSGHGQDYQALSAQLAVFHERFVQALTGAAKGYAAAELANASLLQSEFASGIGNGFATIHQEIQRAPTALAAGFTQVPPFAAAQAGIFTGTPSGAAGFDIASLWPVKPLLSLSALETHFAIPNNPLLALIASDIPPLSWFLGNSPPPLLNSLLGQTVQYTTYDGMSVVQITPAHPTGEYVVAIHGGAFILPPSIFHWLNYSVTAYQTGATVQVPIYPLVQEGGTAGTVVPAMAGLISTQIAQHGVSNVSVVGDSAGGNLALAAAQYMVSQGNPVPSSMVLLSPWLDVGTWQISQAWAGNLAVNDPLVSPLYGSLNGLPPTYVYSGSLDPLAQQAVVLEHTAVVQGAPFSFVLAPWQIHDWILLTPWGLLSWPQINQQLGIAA
# Target: Mycobacterium tuberculosis LipY (triacylglycerol lipase) (Mycobacterium tuberculosis, UniProt I6Y2J4)
# Type: biochemical
compound,measurement,value
"CCCCCCCCCCCCCCCCOP1(=O)CCCC(C(=O)OC)=C(C)O1 (stereo not shown) [Compound 11, Methyl 7-methyl-2-(hexadecyloxy)-2,3,4,5-tetrahydro-1,2-oxaphosphepine-6-carboxylate 2-oxide]","residual lipase activity (plateau), LipY",around 6.0%
